Measurements as given in the supplement of paper PMC3578754.
Fold change is the IC50 on the isolate divided by the IC50 on a reference virus; 1 = unchanged, higher = more resistant. Changes are given against the subtype B consensus. No active / inactive call. The values were gathered from many studies (numbered anew) with different assays, which the source does not name. Most viruses are clinical isolates; some are laboratory strains or clones with known resistance changes. Isolates with mixed residues are left out; stretches that were not sequenced show no change. Round top values that many isolates share are read here as limits; other very high values and 0.1 may be limits too. The protease changes I3V and N37S, insertions and deletions cannot be read from the source.

Columns and labels:
Assay in all cases: fold change of IC50 against reference virus; higher = more resistant; Cell-culture drug susceptibility tests of virus bearing the protease of each isolate, gathered from many studies.
[1] = compound: CC(C)(C)NC(=O)[C@@H]1C[C@@H]2CCCC[C@@H]2CN1C[C@@H](O)[C@H](Cc1ccccc1)NC(=O)[C@H](CC(N)=O)NC(=O)c1ccc2ccccc2n1 [saquinavir]
[2] = compound: CCC[C@@]1(CCc2ccccc2)CC(O)=C([C@H](CC)c2cccc(NS(=O)(=O)c3ccc(C(F)(F)F)cn3)c2)C(=O)O1 [tipranavir]
[3] = compound: Cc1cccc(C)c1OCC(=O)N[C@@H](Cc1ccccc1)[C@@H](O)C[C@H](Cc1ccccc1)NC(=O)[C@H](C(C)C)N1CCCNC1=O [lopinavir]
[4] = compound: CC(C)c1nc(CN(C)C(=O)N[C@H](C(=O)N[C@@H](Cc2ccccc2)C[C@H](O)[C@H](Cc2ccccc2)NC(=O)OCc2cncs2)C(C)C)cs1 [ritonavir]
[5] = compound: COC(=O)N[C@H](C(=O)N[C@@H](Cc1ccccc1)[C@@H](O)CN(Cc1ccc(-c2ccccn2)cc1)NC(=O)[C@@H](NC(=O)OC)C(C)(C)C)C(C)(C)C [atazanavir]
[6] = compound: CC(C)(C)NC(=O)[C@@H]1CN(Cc2cccnc2)CCN1C[C@@H](O)C[C@@H](Cc1ccccc1)C(=O)N[C@H]1c2ccccc2C[C@H]1O [indinavir]
[7] = compound: Cc1c(O)cccc1C(=O)N[C@@H](CSc1ccccc1)[C@H](O)CN1C[C@H]2CCCC[C@H]2C[C@H]1C(=O)NC(C)(C)C [nelfinavir]

Test System | fold change of IC50 against reference virus [1] | fold change of IC50 against reference virus [2] | fold change of IC50 against reference virus [3] | fold change of IC50 against reference virus [4] | fold change of IC50 against reference virus [5] | fold change of IC50 against reference virus [6] | fold change of IC50 against reference virus [7]
HIV-1 isolate 71 (protease changes: L10I D30N L33F M46L F53L I54L Q58E L63P A71T G73S V77I N88D, study 64) | 21 | 0.2 | 4.6 | 4.4 | 35 | 1.4 | 
HIV-1 isolate 403 (protease changes: L10F V11I T12P I13V I15V L19P K20T V32I L33F E35G M36I I54V I62V L63P K70T A71I G73S P79A I84V L89V L90M, study 64) |  | 9.5 | ≥ 500 | ≥ 800 | 111 |  | 51
HIV-1 isolate 521 (protease changes: L10I K20R L33F E34T E35D M36I N37D K43T M46I G48V I50V I54S R57K I62V L63P A71V I72V V77I V82A I85V I93L, study 64) |  | 1.6 | ≥ 500 | ≥ 800 | 109 | ≥ 500 | 
HIV-1 isolate 694 (protease changes: L10F I13V K20R D30N L33F M36I N37D R41K M46I I54L L63P I64L I66V A71T I72T I84V N88D L90M I93L C95F, study 64) |  | 0.9 | 78 | 107 | 178 |  | 
HIV-1 isolate 980 (protease changes: L10I V11L I13V K14R A22V E35D M36I N37D G48M F53L I54V I62V L63P A71V T74S V82A I84V T91S Q92K, study 64) |  | 2 | 130 | ≥ 800 | ≥ 700 | 76 | 
HIV-1 isolate 1014 (protease changes: K14R L19I E35D N37D D60E I62V L63P V77I I93L, study 64) |  | 0.8 | 0.6 | 0.9 | 1 | 1 | 
HIV-1 isolate 1043 (protease changes: L10I L63P I93L, study 64) | 1 | 1.1 | 1.1 | 1.2 | 1 | 1.5 | 
HIV-1 isolate 1079 (protease changes: L10I I13V K14R V32I L33F K43T M46I I47V I54L I62V L63P A71T I72T G73T V77I P79S I84V L90M, study 46) | 36 | 7.7 | 133 |  | 86 | 36 | 26
HIV-1 isolate 1085 (protease changes: L10I I15L L19I E35D M36I R41K M46I K55R I62V L63P A71T I72T I84V I85V L90M, study 15) | 18 | 17 | 4.1 |  | 6.8 | 9.2 | 21
HIV-1 isolate 1095 (protease changes: T12V I13V I15V K20M V32I L33F K43T I54L K55N I62V L63P A71V I72V G73S V77I V82L I84V L89V L90M, study 46) | 30 | 13 | 46 |  | 121 | 48 | 62
HIV-1 isolate 1183 (protease changes: L10F L33F E35D M36I I54L I62V L63P A71V G73S I84V L90M, study 64) |  | 2.1 | 55 | 102 | 159 |  | 66
HIV-1 isolate 1184 (protease changes: L10I I15V G16A K20R V32I M36I M46I F53L I54V K55R Q58E L63P A71V I72V L76V V82A L90M I93L, study 64) | 30 | 1.6 | 189 |  | 39 | 56 | 119
HIV-1 isolate 1266 (protease changes: L10I I13V G16E L33F M36L N37T P39S K45R M46L I54V K55R I62V L63P A71V G73D V82T I84V L89V L90M I93L, study 46) | 223 | 96 | 133 |  | 121 | 189 | 38
HIV-1 isolate 1373 (protease changes: L10F I13V L19I K20T V32I E35N M36I M46I G48Q I54L L63P C67E A71V T74S L76V I84V L89V L90M T91S I93L, study 64) |  | 0.9 | ≥ 500 | ≥ 800 | ≥ 700 | 182 | 
HIV-1 isolate 1561 (protease changes: L10I I15V L24F L33F E35D R41K M46I I54V I62V L63P A71V G73S V82A L90M I93L, study 64) | 44 | 2.1 | 103 |  | 139 | 40 | 91
